Measurements reported in PubChem BioAssay AID1259414 (Drosophila RNAi Screening Center, 2018)
In all, the deposit lists about 24,000 reagents; shown is an unselected part of those with a known target gene and a result. Over the whole deposit, about 1,210 (5%) were called active. 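Inactive calls also include excluded dsRNAs with several or no targets, genes unexpressed in JW18, and well A1, regardless of score.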 Unmarked entries are inactive. A plus sign joins genes that one reagent is predicted to hit. Reagent sequences are not shown.

Assay: 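Fly genes that alter Wolbachia amount inside host cells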 (primary screen)
Cells: Drosophila JW18 cells infected with Wolbachia
Knock-down reagent: long dsRNA against Drosophila genes, 0.25 µg dsRNA per well of a 384-well plate
Timing: 5 days
Challenge: cells persistently infected with Wolbachia before knock-down; no added drug
Measurement: 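Automated imaging of bacterial rRNA staining divided by host cell count, reported as plate-normalised robust z-score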
Scale: Wolbachia per cell robust z: higher = more Wolbachia per host cell than the plate typical
Call rule: 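Hit when robust z is 1.5 or more, or -1.5 or less, in at least two of three replicates; excludes dsRNAs with several or no targets, genes not expressed in JW18 and well A1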

"Wolbachia per cell robust z, rep 1","Wolbachia per cell robust z, rep 2","Wolbachia per cell robust z, rep 3",predicted target,DRSC id
0.584,-0.198,-0.136,Or67b,DRSC11241
-0.193,0.995,0.931,CG5050,DRSC02807
0.551,0.959,1.18,sro,DRSC14469
-0.311,0.302,-2.65,sro,DRSC27358
1.27,1.93,0.0543,mod(mdg4),DRSC13478
-1.17,0.507,0.376,mod(mdg4),DRSC15042
-0.852,0.546,-0.566,mod(mdg4),DRSC17000
0.172,1.36,-0.287,RpL18,DRSC11016
0.888,1.16,1.69,RpL18,DRSC22323
-0.62,-0.675,-2.4,ZnT86D,DRSC16091
-2.67,1.09,0.607,APC10,DRSC06071
0.234,0.202,-2.77,CG9411,DRSC20184
0.803,-2.19,0.00494,CG9411,DRSC26840
-0.455,-0.262,0.647,MED6,DRSC16500
-0.642,-3.53,0.05,Pcmt,DRSC12363
-0.823,-0.41,-2.12,CG14086,DRSC10090
-0.187,-3.39,0.147,melt,DRSC11367
-0.8,0.88,0.764,CG9130 + CG9133,DRSC22010
-0.199,0.508,-5.11,CG9130 + CG9133,DRSC29697
0.079,-3,0.702,CG13896,DRSC08366
-1.39,0.347,0.114,Cpr76Bc,DRSC11062
0.624,-0.343,0.134,Cpr76Bc,DRSC27478
1.16 (active),4.29,5.7,RpS13,DRSC03419
2.94 (active),4.33,4.85,RpS13,DRSC28558
1.06,0.356,-2.13,CG15930,DRSC18107
-0.274,0.213,0.326,CG15930,DRSC29656
0.158,0.81,-0.86,Dh31,DRSC02196
-0.702,1.14,0.77,CG13721,DRSC08330
0.803,-2.32,0.509,Gga,DRSC18260
1.26,0.245,-0.32,Gga,DRSC27761
0.0121,-0.725,0.814,CG13157,DRSC06282

The list goes on, starting with the last 8 of the part before.
"Wolbachia per cell robust z, rep 1","Wolbachia per cell robust z, rep 2","Wolbachia per cell robust z, rep 3",predicted target,DRSC id
2.94 (active),4.33,4.85,RpS13,DRSC28558
1.06,0.356,-2.13,CG15930,DRSC18107
-0.274,0.213,0.326,CG15930,DRSC29656
0.158,0.81,-0.86,Dh31,DRSC02196
-0.702,1.14,0.77,CG13721,DRSC08330
0.803,-2.32,0.509,Gga,DRSC18260
1.26,0.245,-0.32,Gga,DRSC27761
0.0121,-0.725,0.814,CG13157,DRSC06282
-0.726,-0.142,-4.7,CG2124,DRSC18208
-0.134,0.186,-0.325,Dop1R2,DRSC13958
-1.99,0.635,0.317,Dop1R2,DRSC15379
0.798,1.05,1.09,Dop1R2,DRSC28272
-0.643,0.265,-1.8,Den1,DRSC07195
0.191,-1.44,0.0913,CG13078,DRSC02182
0.684,-9.28,-1.21,RunxB,DRSC20395
0.593,0.21,-1,RunxB,DRSC20525
-0.251,-0.748,-1.36,RunxB,DRSC20526
0.52,-5.43,-5.38,RunxB,DRSC23150
-1.21,-0.121,-0.448,RunxB,DRSC28799
1.07,0.95,0.183,CG32333,DRSC08627
1.06,1.66,1.2,CG32333,DRSC08629
2.43,1.35,0.326,RpL8,DRSC08532
0.905,1.54,1.06,RpL8,DRSC08695
1.95 (active),2.4,2.79,RpL8,DRSC29905
0.731,0.282,0.654,frm,DRSC09753
-0.159,-0.803,-1.03,frm,DRSC25370
-0.0332,0.742,-2.24,frm,DRSC39047
0.965,0.973,1.38,CG14329,DRSC14808
-1.37,-0.119,-1.5,MagR,DRSC20092
0.138,-0.0529,0.929,Ndc1,DRSC15895
2.22,1.01,-0.715,atl,DRSC16089
2.31 (active),1.4,2.28,atl,DRSC26241
0.505,-2.09,0.496,CG17652,DRSC00511
0.374,-1.1,0.463,Gr64f,DRSC08447
-0.989,0.0452,0.278,Gr64f,DRSC25964
2.14 (active),2.6,0.961,SREBP,DRSC11182
1.03,-1.81,0.0774,danr,DRSC14651
-7.22,-0.36,1.69,danr,DRSC27029
0.304,-0.347,-0.686,stas,DRSC20104
1.63,0.564,-0.167,PCNA,DRSC07653
0.501,0.0747,-1.53,CG9328,DRSC03203
0.697,0.917,0.236,CG31287,DRSC13138
-0.903,-0.281,-0.0855,CG14014,DRSC02345
-0.255,0.338,0.192,CG9377,DRSC03217
0.338,-0.2,0.796,kappaB-Ras + CG30503,DRSC06619
0.542,0.866,0.0531,kappaB-Ras + CG30503,DRSC07636
